Measured values as given in ChEMBL document CHEMBL1142398, “Chemical stability of the peroxide bond enables diversified synthesis of potent tetraoxane antimalarials” (J Med Chem, 2008).

What was measured:
Plasmodium falciparum [1] = settings: D6
Plasmodium falciparum [2] = settings: W2
Plasmodium falciparum [3] = settings: TM91C235

For `[N-]=[N+]=NCC1CCC2(CC1)OOC1(CCCCC1)OO2`, the IC90 (Plasmodium falciparum [1]) was 20.3 nM, the IC90 (Plasmodium falciparum [2]) was 11 nM and the IC90 (Plasmodium falciparum [3]) was 22.2 nM.
